Measured values reported in paper PMC4885069, “Botulinum Neurotoxin Serotype A Recognizes Its Protein Receptor SV2 by a Different Mechanism than Botulinum Neurotoxin B Synaptotagmin” (2016).

Legend:
[1] = molecular target: T1, GST-rSV2B 413–535, rat, Q63564 413-535
T1 sequence: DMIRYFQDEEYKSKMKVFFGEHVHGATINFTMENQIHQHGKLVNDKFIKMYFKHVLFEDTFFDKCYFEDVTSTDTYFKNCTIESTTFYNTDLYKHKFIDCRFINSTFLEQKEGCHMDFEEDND

[2] = molecular target: GST-rSV2A 468–594, rat, Q02563 468-594

HC-fragment of BoNT/A fused to a C-terminal Streptag (HCAS)
absolute binding in mol % [1]: 5.5 mol %
absolute binding in mol % [2]: 7.4 mol %
